Potato spindle tuber viroid, loop 15: variant abundance in plants

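A pool of all variants was put on leaves of three Nicotiana benthamiana plants. Progeny were sequenced from the inoculated region (day 5), the margin of the inoculated leaf (day 10) and systemic leaves (day 12).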

Region: loop 15 of PSTVd (intermediate strain), upper and lower strand joined, each 5' to 3', the first 7 letters being the upper strand, closing pairs included. Wild type: GGAAACCGCUACUAC. Varied positions (N): GGAAACCGNNNNNNC.

Numbers give reads per thousand; 0 = not seen among the reads, higher = more abundant.
Each site shows the three plants.
"Pool" is the share in the plasmid pool used as inoculum, on the same scale.
The inoculated region was read from the minus strand, the other sites from the plus strand.
With 43,870-66,106 reads a sample, very low values are single reads.
Wild type was 33.9 per thousand in the pool and the most common sequence in every sample (inoculated region 202, 200, 159; leaf margin 724, 746, 710; systemic leaves 856, 883, 880).
The authors trace changes outside the varied positions to PCR and sequencing errors or to mutation in the plant; presence does not show that a variant is infectious alone.

| sequence | pool | inoculated region | leaf margin | systemic leaves |
|---|---|---|---|---|
| GGAAACCGUAUUAAC | 0.224 | 0.115 / 0.112 / 0.114 | 0.0323 / 0 / 0.0401 | 0 / 0.0151 / 0 |
| GGAAACCGUAUUACC | 0.304 | 0.0164 / 0.225 / 0.0762 | 0 / 0 / 0.0601 | 0 / 0 / 0 |
| GGAAACCGUAUUAGC | 0.192 | 0.0819 / 0.129 / 0.171 | 0.0162 / 0 / 0.0200 | 0 / 0 / 0 |
| GGAAACCGUAUUAUC | 0.208 | 0.164 / 0.177 / 0.228 | 0.0162 / 0 / 0.0401 | 0.0161 / 0 / 0 |
| GGAAACCGUAUUCAC | 0.320 | 0.180 / 0.225 / 0.171 | 0 / 0 / 0 | 0 / 0.0151 / 0 |
| GGAAACCGUAUUCCC | 0.192 | 0.0983 / 0.0803 / 0.0571 | 0 / 0.0223 / 0.0200 | 0 / 0 / 0 |
| GGAAACCGUAUUCGC | 0.256 | 0.213 / 0.209 / 0.190 | 0 / 0.0223 / 0.0401 | 0 / 0 / 0 |
| GGAAACCGUAUUCUC | 0.208 | 0.0819 / 0.129 / 0.114 | 0.0162 / 0.0223 / 0 | 0 / 0 / 0 |
| GGAAACCGUAUUGAC | 0.224 | 0.164 / 0.129 / 0.0952 | 0.0162 / 0 / 0 | 0 / 0 / 0 |
| GGAAACCGUAUUGCC | 0.208 | 0.147 / 0.161 / 0.0190 | 0 / 0 / 0 | 0.0161 / 0 / 0 |
| GGAAACCGUAUUGGC | 0.192 | 0.115 / 0.0964 / 0.0952 | 0 / 0 / 0 | 0.0161 / 0 / 0 |
| GGAAACCGUAUUGUC | 0.160 | 0.0655 / 0.0482 / 0.133 | 0 / 0 / 0.0200 | 0 / 0 / 0 |
| GGAAACCGUAUUUAC | 0.144 | 0.262 / 0.241 / 0.343 | 0.0808 / 0.0891 / 0.120 | 0.0805 / 0.0151 / 0.0684 |
| GGAAACCGUAUUUCC | 0.368 | 0.0491 / 0.0643 / 0.0571 | 0 / 0 / 0 | 0.0161 / 0 / 0 |
| GGAAACCGUAUUUGC | 0.192 | 0.0328 / 0.0964 / 0.152 | 0 / 0 / 0.0200 | 0 / 0 / 0 |
| GGAAACCGUAUUUUC | 0.288 | 0.0491 / 0.0643 / 0.0762 | 0 / 0 / 0.0200 | 0 / 0 / 0 |
| GGAAACCGUCAAAAC | 0.288 | 0.344 / 0.273 / 0.419 | 0.113 / 0.156 / 0.140 | 0.0644 / 0.0151 / 0.0912 |
| GGAAACCGUCAAACC | 0.320 | 0.115 / 0.193 / 0.152 | 0 / 0 / 0 | 0 / 0 / 0 |
| GGAAACCGUCAAAGC | 0.176 | 0.0819 / 0.0964 / 0.0381 | 0 / 0 / 0.100 | 0 / 0 / 0 |
| GGAAACCGUCAAAUC | 0.256 | 0.197 / 0.0643 / 0.0571 | 0.0323 / 0 / 0 | 0.0161 / 0 / 0 |
| GGAAACCGUCAACAC | 0.336 | 0.360 / 0.450 / 0.495 | 0.178 / 0.0668 / 0.100 | 0.0322 / 0 / 0.0912 |
| GGAAACCGUCAACCC | 0.272 | 0.0491 / 0.0482 / 0.0762 | 0 / 0 / 0 | 0 / 0 / 0 |
| GGAAACCGUCAACGC | 0.208 | 0.197 / 0.112 / 0.228 | 0.0323 / 0 / 0.0200 | 0.0161 / 0 / 0 |
| GGAAACCGUCAACUC | 0.160 | 0.295 / 0.353 / 0.419 | 0.0808 / 0.0891 / 0.120 | 0.0483 / 0 / 0 |
| GGAAACCGUCAAGAC | 0.224 | 0.0164 / 0.0803 / 0.0381 | 0.0162 / 0 / 0.0200 | 0 / 0 / 0 |
| GGAAACCGUCAAGCC | 0.176 | 0.131 / 0.0482 / 0.152 | 0 / 0 / 0.0200 | 0.0161 / 0 / 0 |
| GGAAACCGUCAAGGC | 0.224 | 0.131 / 0.177 / 0.248 | 0 / 0 / 0 | 0.0161 / 0 / 0 |
| GGAAACCGUCAAGUC | 0.240 | 0.131 / 0.0161 / 0.0952 | 0.0323 / 0 / 0.0200 | 0.0161 / 0 / 0 |
| GGAAACCGUCAAUAC | 0.240 | 0.409 / 0.273 / 0.190 | 0.178 / 0.0668 / 0.0801 | 0.0483 / 0.0151 / 0.0228 |
| GGAAACCGUCAAUCC | 0.192 | 0.311 / 0.369 / 0.419 | 0.146 / 1.00 / 0.160 | 0.0966 / 0 / 0 |
| GGAAACCGUCAAUGC | 0.208 | 0.393 / 0.241 / 0.438 | 0.0808 / 0.245 / 0.0801 | 0.129 / 0.0151 / 0.0456 |
| GGAAACCGUCAAUUC | 0.240 | 0.213 / 0.193 / 0.457 | 0.0808 / 0.178 / 0.0601 | 0.0483 / 0.106 / 0.0684 |
| GGAAACCGUCACAAC | 0.224 | 0.278 / 0.353 / 0.362 | 0.113 / 0.0445 / 0.160 | 0.0322 / 0.0303 / 0.182 |
| GGAAACCGUCACACC | 0.240 | 0.0983 / 0.112 / 0.171 | 0.0162 / 0 / 0 | 0 / 0 / 0 |
| GGAAACCGUCACAGC | 0.288 | 0.0491 / 0.0803 / 0.0762 | 0 / 0 / 0.0200 | 0 / 0 / 0 |
| GGAAACCGUCACAUC | 0.288 | 0.0983 / 0.112 / 0.0952 | 0 / 0.0223 / 0.0200 | 0 / 0 / 0 |
| GGAAACCGUCACCAC | 0.208 | 0.295 / 0.353 / 0.362 | 0.0970 / 0.111 / 0.140 | 0.0483 / 0.0151 / 0.114 |
| GGAAACCGUCACCCC | 0.256 | 0.0819 / 0.112 / 0.0571 | 0 / 0 / 0 | 0.0322 / 0 / 0 |
| GGAAACCGUCACCGC | 0.272 | 0.0819 / 0.112 / 0.133 | 0 / 0 / 0.0200 | 0 / 0 / 0 |
| GGAAACCGUCACCUC | 0.304 | 0.344 / 0.257 / 0.209 | 1.26 / 1.87 / 0.140 | 0.0483 / 0 / 0 |
| GGAAACCGUCACGAC | 0.352 | 0.131 / 0.193 / 0.190 | 0 / 0 / 0.0801 | 0.0161 / 0 / 0 |
| GGAAACCGUCACGCC | 0.192 | 0.0983 / 0.0482 / 0.133 | 0 / 0.0223 / 0 | 0 / 0 / 0 |
| GGAAACCGUCACGGC | 0.288 | 0.131 / 0.0321 / 0.0952 | 0.0162 / 0 / 0 | 0 / 0 / 0 |
| GGAAACCGUCACGUC | 0.240 | 0.180 / 0.145 / 0.171 | 0.0162 / 0 / 0.0401 | 0 / 0 / 0 |
| GGAAACCGUCACUAC | 0.112 | 0.295 / 0.321 / 0.514 | 0.0485 / 0.0891 / 0.260 | 0.0483 / 0.0151 / 0.0912 |
| GGAAACCGUCACUCC | 0.272 | 0.328 / 0.257 / 0.228 | 0.113 / 0.134 / 0.120 | 0.0966 / 0 / 0 |
| GGAAACCGUCACUGC | 0.0800 | 0.328 / 0.321 / 0.228 | 0.0970 / 0.0668 / 0.0801 | 0.0161 / 0.0454 / 0.0912 |
| GGAAACCGUCACUUC | 0.224 | 0.213 / 0.305 / 0.381 | 0.129 / 0.111 / 0.120 | 0.0322 / 0.0756 / 0.0456 |
| GGAAACCGUCAGAAC | 0.256 | 0.328 / 0.273 / 0.209 | 0.146 / 0.0668 / 0.120 | 0.0805 / 0.121 / 0.0684 |
| GGAAACCGUCAGACC | 0.272 | 0.131 / 0.0482 / 0.0571 | 0.0162 / 0.0223 / 0 | 0.0322 / 0 / 0 |
| GGAAACCGUCAGAGC | 0.192 | 0.213 / 0.289 / 0.362 | 0.146 / 0.0445 / 0.180 | 0.0322 / 0 / 0 |
| GGAAACCGUCAGAUC | 0.304 | 0.344 / 0.289 / 0.343 | 0.0647 / 0.0668 / 0.160 | 0.0161 / 0.0151 / 0.0228 |
| GGAAACCGUCAGCAC | 0.208 | 0.311 / 0.321 / 0.400 | 0.162 / 0.134 / 0.0601 | 0.0322 / 0.0454 / 0.114 |
| GGAAACCGUCAGCCC | 0.256 | 0.0655 / 0.0482 / 0.171 | 0 / 0 / 0.0401 | 0 / 0 / 0 |
| GGAAACCGUCAGCGC | 0.288 | 0.115 / 0.0803 / 0.133 | 0 / 0.0223 / 0.0200 | 0 / 0 / 0 |
| GGAAACCGUCAGCUC | 0.192 | 0.360 / 0.386 / 0.400 | 0.178 / 0.200 / 0.220 | 0.0322 / 0 / 0 |
| GGAAACCGUCAGGAC | 0.208 | 0.557 / 0.562 / 0.457 | 0.146 / 0.134 / 0.100 | 0.0644 / 0.0303 / 0.0228 |
| GGAAACCGUCAGGCC | 0.256 | 0.0655 / 0.0643 / 0.0952 | 0 / 0 / 0 | 0.0322 / 0 / 0 |
| GGAAACCGUCAGGGC | 0.288 | 0.0328 / 0.129 / 0.171 | 0 / 0.0223 / 0 | 0.0161 / 0 / 0 |
| GGAAACCGUCAGGUC | 0.144 | 0.278 / 0.193 / 0.362 | 0.129 / 0.0891 / 0.140 | 0.0483 / 0.0454 / 0.0684 |
| GGAAACCGUCAGUAC | 0.224 | 0.311 / 0.257 / 0.400 | 0.129 / 0.111 / 0.0801 | 0.0322 / 0 / 0 |
| GGAAACCGUCAGUCC | 0.320 | 0.295 / 0.402 / 0.381 | 0.0647 / 0.156 / 0.160 | 0 / 0.106 / 0.0228 |
| GGAAACCGUCAGUGC | 0.272 | 0.459 / 0.434 / 0.495 | 0.129 / 0.690 / 0.120 | 0.0483 / 0.0151 / 0.205 |
| GGAAACCGUCAGUUC | 0.176 | 0.229 / 0.241 / 0.419 | 0.0808 / 0.0891 / 0.120 | 0.0322 / 0.0605 / 0.0684 |
| GGAAACCGUCAUAAC | 0.192 | 0.278 / 0.402 / 0.362 | 0.113 / 0.178 / 0.0801 | 0 / 0.0303 / 0.0228 |
| GGAAACCGUCAUACC | 0.320 | 0.115 / 0.112 / 0.0952 | 0 / 0 / 0 | 0 / 0 / 0 |
| GGAAACCGUCAUAGC | 0.288 | 0.0328 / 0.0482 / 0.0952 | 0 / 0 / 0 | 0 / 0 / 0 |
| GGAAACCGUCAUAUC | 0.176 | 0.377 / 0.450 / 0.476 | 0.129 / 0.0668 / 0.140 | 0.0322 / 0.106 / 0.160 |
| GGAAACCGUCAUCAC | 0.240 | 0.180 / 0.193 / 0.400 | 0.0647 / 0.134 / 0.140 | 0.0483 / 0.0908 / 0.0456 |
| GGAAACCGUCAUCCC | 0.240 | 0.0819 / 0.112 / 0.114 | 0 / 0 / 0.0200 | 0 / 0 / 0 |
| GGAAACCGUCAUCGC | 0.304 | 0.0819 / 0.0964 / 0.0190 | 0.0323 / 0 / 0.0200 | 0 / 0 / 0 |
| GGAAACCGUCAUCUC | 0.304 | 0.262 / 0.353 / 0.590 | 0.0647 / 0.0668 / 0.160 | 0.0644 / 0 / 0 |
| GGAAACCGUCAUGAC | 0.224 | 0.0491 / 0.145 / 0.0952 | 0 / 0 / 0.0601 | 0 / 0 / 0 |
| GGAAACCGUCAUGCC | 0.112 | 0.131 / 0.0964 / 0.0762 | 0.0162 / 0.0223 / 0 | 0 / 0 / 0 |
| GGAAACCGUCAUGGC | 0.240 | 0.0655 / 0.0643 / 0.171 | 0 / 0 / 0.0401 | 0 / 0 / 0 |

The first 7 entries again:

sequence,pool,inoculated region,leaf margin,systemic leaves
GGAAACCGUAUUAAC,0.224,0.115 / 0.112 / 0.114,0.0323 / 0 / 0.0401,0 / 0.0151 / 0
GGAAACCGUAUUACC,0.304,0.0164 / 0.225 / 0.0762,0 / 0 / 0.0601,0 / 0 / 0
GGAAACCGUAUUAGC,0.192,0.0819 / 0.129 / 0.171,0.0162 / 0 / 0.0200,0 / 0 / 0
GGAAACCGUAUUAUC,0.208,0.164 / 0.177 / 0.228,0.0162 / 0 / 0.0401,0.0161 / 0 / 0
GGAAACCGUAUUCAC,0.320,0.180 / 0.225 / 0.171,0 / 0 / 0,0 / 0.0151 / 0
GGAAACCGUAUUCCC,0.192,0.0983 / 0.0803 / 0.0571,0 / 0.0223 / 0.0200,0 / 0 / 0
GGAAACCGUAUUCGC,0.256,0.213 / 0.209 / 0.190,0 / 0.0223 / 0.0401,0 / 0 / 0

The measurements come from Wu et al. 2024 (doi:10.1371/journal.ppat.1012142).